A mixed list of measured activities; the numbers were collected in NIAID ChemDB.

Shared fields: tests in culture; agent: Aspergillus fumigatus; endpoint: MIC80

An empty or dashed field is not shown.

SMILES | strain | method | result
CCCCN(Cc1cn(Cc2ccc(F)cc2)nn1)CC(O)(Cn1cncn1)c1ccc(F)cc1F |  |  | >64 µg/mL
CCC(C)c1ccc(Cn2cc(CN3CCN([C@H](C)[C@](O)(Cn4cncn4)c4ccc(F)cc4F)CC3)c3ccccc32)cc1 | ATCC 16424 | resazurin | 32 µg/mL
COc1c(O)ccc2oc3cccc(O)c3c(=O)c12 |  |  | 31 µg/mL
Clc1ccc(Cn2cc(Cn3ccnc3)c3ccccc32)c(Cl)c1 | AF980003 |  | 20 µg/mL
O=C(/C=C/c1cccc(Br)c1)OC1CCN(CC(O)(Cn2cncn2)c2ccc(F)cc2F)CC1 | 0504656 | broth dilution | 1.831 µM
CN1CCN(c2n[nH]c(N3C(=O)CS[C@@H]3c3ccc4c(c3)OCO4)n2)CC1 | 119 | broth dilution | 3.12 µg/mL
O=C(/C=C/c1cccc(Cl)c1)OC1CCN(CC(O)(Cn2cncn2)c2ccc(F)cc2F)CC1 | 0504656 | broth dilution | 1.991 µM
C=CCc1ccc(Cn2cc(CN3CCN([C@H](C)[C@](O)(Cn4cncn4)c4ccc(F)cc4F)CC3)c3ccccc32)cc1 | ATCC 16424 | resazurin | 32 µg/mL
O=C(/C=C/c1ccccc1[N+](=O)[O-])OC1CCN(CC(O)(Cn2cncn2)c2ccc(F)cc2F)CC1 | 0504656 | broth dilution | 1.949 µM
CC(c1cn(Cc2ccc(F)cc2F)c2ccccc12)n1ccnc1 | AF980003 |  | >100 µg/mL
C[C@@H](N1CCN(Cc2cn(Cc3ccc(Cl)cc3Cl)c3c(Cl)cccc23)CC1)[C@](O)(Cn1cncn1)c1ccc(F)cc1F | ATCC 16424 | resazurin | 8 µg/mL
Cc1c(C(C)n2ccnc2)c2ccccc2n1Cc1ccc(Br)cc1 | AF980003 |  | >100 µg/mL
CCCCN(Cc1cn(Cc2ccc([N+](=O)[O-])cc2)nn1)CC(O)(Cn1cncn1)c1ccc(F)cc1F |  |  | >64 µg/mL
CCCC(=O)OC1CCN(CC(O)(Cn2cncn2)c2ccc(F)cc2F)CC1 | 0504656 | broth dilution | 2.45 µM
CCCCN(Cc1cn(Cc2ccc(Cl)cc2)nn1)CC(O)(Cn1cncn1)c1ccc(F)cc1F |  |  | >64 µg/mL
Cc1c(Cn2ccnc2)c2ccccc2n1Cc1ccc(F)cc1 | AF980003 |  | >100 µg/mL
CCCCCCCC(=O)OC1CCN(CC(O)(Cn2cncn2)c2ccc(F)cc2F)CC1 | 0504656 | broth dilution | 2.221 µM
CCCCN(Cc1cn(Cc2ccccc2[N+](=O)[O-])nn1)CC(O)(Cn1cncn1)c1ccc(F)cc1F |  |  | >64 µg/mL
O=C(OC1CCN(CC(O)(Cn2cncn2)c2ccc(F)cc2F)CC1)C(F)(F)F | 0504656 | broth dilution | 147 µM
C[C@@H](N1CCN(Cc2cn(Cc3ccc(F)cc3F)c3ccccc23)CC1)[C@](O)(Cn1cncn1)c1ccc(F)cc1F | ATCC 16424 | resazurin | 4 µg/mL
CCCCN(Cc1cn(Cc2ccc(Br)cc2)nn1)CC(O)(Cn1cncn1)c1ccc(F)cc1F |  |  | >64 µg/mL
COc1cccc2oc3ccc(O)c(OC)c3c(=O)c12 |  |  | 16 µg/mL
C[C@@H](N1CCN(Cc2cn(Cc3ccc(Cl)cc3)c3c(Cl)cccc23)CC1)[C@](O)(Cn1cncn1)c1ccc(F)cc1F | ATCC 16424 | resazurin | 8 µg/mL
CC1(C)C=Cc2c(cc(O)c3c(=O)c4cccc(O)c4oc23)O1 |  |  | 31 µg/mL
CCCCN(Cc1cn(Cc2cccc(F)c2)nn1)CC(O)(Cn1cncn1)c1ccc(F)cc1F |  |  | >64 µg/mL
C[C@@H](N1CCN(Cc2cn(Cc3ccc(Cl)cc3)c3c(F)cccc23)CC1)[C@](O)(Cn1cncn1)c1ccc(F)cc1F | ATCC 16424 | resazurin | 16 µg/mL
CO |  |  | >250 µg/mL
C[C@@H](N1CCN(Cc2cn(Cc3ccc(F)cc3F)c3cc(Cl)ccc23)CC1)[C@](O)(Cn1cncn1)c1ccc(F)cc1F | ATCC 16424 | resazurin | 8 µg/mL
COc1c(O)ccc2c(=O)c3ccccc3oc12 |  |  | 62 µg/mL
O=C(OC1CCN(CC(O)(Cn2cncn2)c2ccc(F)cc2F)CC1)C(F)(F)Cl | 0504656 | broth dilution | 142 µM

Lines come from different laboratories, so protocols vary. MIC50, MIC90 and the like: level of inhibition, or share of isolates inhibited.